Values joined by “and” are separate entries in the source; they are usually repeats but may differ in a detail not shown here. Identical values can stand only once. Like-named read-outs stand apart in the source and are kept apart here.

This is an account of results in paper PMC6273635, “Synthesis and Structure-Activity Relationships of Imidazole-Coumarin Conjugates against Hepatitis C Virus” (Molecules, 2016).

Data set [1] relates to HCV genotype 1b subgenomic Huh 5-2 replicon system. The data set can be described thus: Antiviral effect on HCV 1b subgenomic replicon replication in Huh 5-2 cells. The class given is cell-based, Hepatitis C virus. The following applies: selectivity index, ratio of CC50 to EC50. The protocol: The antiviral activity of conjugated compounds 3a–g, 7a–e, 9a,b,d–f, and 11b,e,f in the HCV genotype 1b subgenomic Huh 5-2 replicon system was evaluated according to established procedures. On the basis of the dose-response curves that were obtained, the concentration of a compound that inhibited virus replication by 50% (i.e., EC50) and the concentration of compound that reduced host cell metabolism by 50% (i.e., CC50) were obtained. These values subsequently allowed us to calculate the selectivity index (i.e., SI = CC50/EC50), which is a measure for the therapeutic window of the compound in an assay system. […] The observed antiviral effect of other compounds was most likely related mainly to the pleiotropic or aspecific effect on the host cell.

For data set [2] the test system is unchanged. More on the design: method as in PMID 17977606. The conditions noted are these: selectivity index, ratio of CC50 to EC50; reference known compounds; ref [11]; cited from earlier work.

`O=c1oc2ccc(F)cc2cc1CSc1nc2c(=O)[nH]cnc2n1[C@@H]1O[C@H](CO)[C@@H](O)[C@H]1O` [Compound 9b, 8-[(6′-Fluorocoumarin-3′-yl)methylthio]inosine]: the SI in data set [1] was 1.4.

`Cc1ccc2oc(=O)c(CSc3nc4c(=O)[nH]cnc4n3[C@@H]3O[C@H](CO)[C@@H](O)[C@H]3O)cc2c1` [Compound 9f, 8-[(6′-Methylcoumarin-3′-yl)methylthio]inosine]: the SI in data set [1] is 1.0.

With `O=c1oc2ccccc2cc1CSc1nccn1[C@@H]1O[C@H](CO)[C@@H](O)[C@H]1O` [Compound 7a, 1-(β-D-Ribofuranos-1″-yl)-2-[(coumarin-3′-yl)methylthio]imidazole], the SI in data set [1] was 2.2.

As for `COc1cccc2cc(CSc3nc4c(=O)[nH]c(N)nc4n3[C@@H]3O[C@H](CO)[C@@H](O)[C@H]3O)c(=O)oc12` [Compound 11e, 8-[(8′-Methoxycoumarin-3′-yl)methylthio]guanosine], the SI in data set [1] was 1.0.

Turning to `O=c1oc2ccc(Br)cc2cc1CSc1nc2ccccc2[nH]1` [Compound 12d], the SI in data set [2] was 10.

Turning to `O=c1oc2ccc(F)cc2cc1CSc1nccn1[C@@H]1O[C@H](CO)[C@@H](O)[C@H]1O` [Compound 7b, 1-(β-D-Ribofuranos-1″-yl)-2-[(6′-fluorocoumarin-3′-yl)methylthio]imidazole], in data set [1], the SI came out at 4.7.

Consider `O=c1oc2ccc(Cl)cc2cc1CSc1nccn1[C@@H]1O[C@H](CO)[C@@H](O)[C@H]1O` [Compound 7c, 1-(β-D-Ribofuranos-1″-yl)-2-[(6′-chlorocoumarin-3′-yl)methylthio]imidazole], for which the SI in data set [1] turned out to be 6.3.

Take `Nc1nc2c(nc(SCc3cc4cc(F)ccc4oc3=O)n2[C@@H]2O[C@H](CO)[C@@H](O)[C@H]2O)c(=O)[nH]1` [Compound 11b, 8-[(6′-Fluorocoumarin-3′-yl)methylthio]guanosine]: the SI in data set [1] turned out to be 1.0.

For the compound `O=c1oc2ccc(F)cc2cc1CSc1ncc[nH]1` [Compound 3b, 2-[(6′-Fluorocoumarin-3′-yl)methylthio]imidazole], the SI in data set [1] is 12–21 and 12.

`O=c1oc2ccccc2cc1CSc1ncc[nH]1` [Compound 3a, 2-[(Coumarin-3’-yl)methylthio]imidazole]: in data set [1], the SI amounted to 4.1.

`COc1cccc2cc(CSc3nccn3[C@@H]3O[C@H](CO)[C@@H](O)[C@H]3O)c(=O)oc12` [Compound 7e, 1-(β-D-Ribofuranos-1″-yl)-2-[(8′-methoxycoumarin-3′-yl)methylthio]imidazole]: the SI in data set [1] was determined as 3.5.

As for `COc1cccc2cc(CSc3nc4c(=O)[nH]cnc4n3[C@@H]3O[C@H](CO)[C@@H](O)[C@H]3O)c(=O)oc12` [Compound 9e, 8-[(8′-Methoxycoumarin-3′-yl)methylthio]inosine], the SI in data set [1] amounted to 1.0.

As to `O=c1oc2ccccc2cc1CSc1nc2c(=O)[nH]cnc2n1[C@@H]1O[C@H](CO)[C@@H](O)[C@H]1O` [Compound 9a, 8-[(Coumarin-3′-yl)methylthio]inosine], in data set [1], the SI is on record as 1.8.

As to `O=c1oc2ccc(Br)cc2cc1CSc1ncc[nH]1` [Compound 3d, 2-[(6′-Bromocoumarin-3′-yl)methylthio]imidazole], the SI in data set [1] was 12–21 and 15.

Turning to `O=c1oc2ccc(Br)cc2cc1CSc1nc2c(=O)[nH]cnc2n1[C@@H]1O[C@H](CO)[C@@H](O)[C@H]1O` [Compound 9d, 8-[(6′-Bromocoumarin-3′-yl)methylthio]inosine], the SI in data set [1] amounted to 1.3.

With `O=c1oc2ccc(Cl)cc2cc1CSc1ncc[nH]1` [Compound 3c, 2-[(6′-Chlorocoumarin-3′-yl)methylthio]imidazole], the SI in data set [1] amounted to 8.8.

On to `COc1cccc2cc(CSc3nc4ccccc4[nH]3)c(=O)oc12` [Compound 12e], for which the SI in data set [2] is 2.8.

Take `COc1cccc2cc(CSc3ncc[nH]3)c(=O)oc12` [Compound 3e, 2-[(8′-Methoxycoumarin-3′-yl)methylthio]imidazole]: the SI in data set [1] was 12–21 and 21.

As to `O=c1oc2ccc(Br)cc2cc1CSc1nccn1[C@@H]1O[C@H](CO)[C@@H](O)[C@H]1O` [Compound 7d, 1-(β-D-Ribofuranos-1″-yl)-2-[(6′-bromocoumarin-3′-yl)methylthio]imidazole], the SI in data set [1] is recorded as 5.7.

As for `Cn1ccnc1SCc1cc2ccccc2oc1=O` [Compound 3f, 1-Methyl-2-[(coumarin-3′-yl)methylthio]imidazole], in data set [1], the SI is 7.3.

Consider `Cn1ccnc1SCc1cc2cc(Cl)ccc2oc1=O` [Compound 3g, 1-Methyl-2-[(6′-chlorocoumarin-3′-yl)methylthio]imidazole], for which the SI in data set [1] amounted to 5.1.

As to `O=c1oc2ccccc2cc1CSc1nc2ccccc2[nH]1` [Compound 12a], in data set [2], the SI was 3.4.

For the compound `Cc1ccc2oc(=O)c(CSc3nc4c(=O)[nH]c(N)nc4n3[C@@H]3O[C@H](CO)[C@@H](O)[C@H]3O)cc2c1` [Compound 11f, 8-[(6′-Methylcoumarin-3′-yl)methylthio]guanosine], the SI in data set [1] worked out at 1.0.
